This is an account of results in paper PMC6006364, “D-Cateslytin: a new antifungal agent for the treatment of oral Candida albicans associated infections” (Scientific Reports, 2018).

The data set relates to Candida albicans. Put plainly: Time-lapse video microscopy of Candida albicans with rhodamine-labelled peptides. It counts as cell-based. The note with it: 10 × MIC (55 μg/mL Rho-D-Ctl, 79 μg/mL Rho-L-Ctl), 30 min loading then wash; 34/34 L-Ctl and 23/23 D-Ctl treated colonies. On the procedure: Diluted precultures (1/1000) of Candida albicans were incubated for 1 hour at 37 °C without agitation in glass bottom μ-Dish^35mm,high (Ibidi) previously treated with poly-L-lysine. […] To perform time-lapse video microscopy, the peptides were removed and replaced by Sabouraud medium. Yeasts were then plated at 37 °C, 5% CO2, on a Nikon Eclipse Ti inverted microscope equipped with an Andor Zyla sCMOS camera and a 60X objective. To prevent evaporation, a layer of mineral oil (Sigma) was added on top of the media prior imaging. Images (fluorescence and phase contrast) were captured every 10 min for 20 hours using Nikon NIS-Elements AR software, and processed with ImageJ.

On to “Rho-D-Ctl: D-Ctl with a rhodamine moiety on the N-terminal end, used for video microscopy (RSMRLSFRARGYGFR; D-amino acids; N-terminal rhodamine)”, for which the “intensity of fluorescence in C. albicans over a period of 17 hours” value was “stays stable”.
Consider “Rho-L-Ctl: L-Ctl with a rhodamine moiety on the N-terminal end, used for video microscopy (RSMRLSFRARGYGFR; N-terminal rhodamine)”, for which the “intensity of fluorescence in C. albicans over a period of 17 hours” value is “decreases”.
